PubChem BioAssay AID624099, ICCB-Longwood | 2012
This is one part, drawn at random, of about 21,000 reagents tested. In the full data, 497 (2.4%) got an active call. 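Higher z means weaker E2 silencing; only reporter increases were scored, and knock-downs that hurt cell survival may mask genuine repressor factors.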 Unmarked entries are inactive.

Purpose: 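Human genes that papillomavirus E2 requires to repress the HPV18 LCR promoter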 (primary screen)
Cells: human C33A cervical carcinoma cells (HPV-negative) stably expressing BPV1 E2 and an HPV18 LCR luciferase reporter
Knock-down reagent: siRNA pool against human genes, 40 nM
Time to read-out: 72 h
Measured: 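Per-well luciferase luminescence, z-scored on each plate against the plate mean and SD with control wells left out, then averaged across three replicate plates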
Reading the numbers: mean z-score and z-score: higher = stronger reporter signal, weaker E2 silencing
Call rule: 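Mean z ≥ 2 together with z ≥ 2 in two or more of the three replicates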

HAL gave mean z-score -0.26; z-score, replicate A = -0.16; z-score, replicate B = -0.44; z-score, replicate C = -0.17.
After knock-down of PLA2G12A the results were mean z-score 1.67; z-score, replicate A = 2.34; z-score, replicate B = 1.02; z-score, replicate C = 1.66.
SIRPB1 gave mean z-score -0.18; z-score, replicate A = -0.48; z-score, replicate B = 0.07; z-score, replicate C = -0.11.
Depletion of KLK11 came out at: mean z-score -0.4; z-score, replicate A = -0.42; z-score, replicate B = -0.44; z-score, replicate C = -0.32.
Knock-down of SLC4A9 resulted in: mean z-score -0.93; z-score, replicate A = -0.79; z-score, replicate B = -0.74; z-score, replicate C = -1.25.
Against AP4E1, the values are mean z-score -1.35; z-score, replicate A = -1.55; z-score, replicate B = -1.45; z-score, replicate C = -1.06.
Knock-down of PCYT1A came out at: mean z-score 0.71; z-score, replicate A = 0.55; z-score, replicate B = 0.74; z-score, replicate C = 0.84.
For ZNF814, the values are mean z-score -0.43; z-score, replicate A = -0.51; z-score, replicate B = -0.41; z-score, replicate C = -0.38.
Depletion of CYP2A6 came out at: mean z-score 0.44; z-score, replicate A = 0.29; z-score, replicate B = 0.22; z-score, replicate C = 0.81.
After knock-down of IFNE the results were mean z-score -1.14; z-score, replicate A = -1.14; z-score, replicate B = -1.08; z-score, replicate C = -1.2.
After knock-down of VASP, the record shows mean z-score 0.17; z-score, replicate A = 0.1; z-score, replicate B = 0.26; z-score, replicate C = 0.15.
With knock-down of LRRC17, the screen gave mean z-score -0.04; z-score, replicate A = 0.13; z-score, replicate B = -0.13; z-score, replicate C = -0.13.
After knock-down of ZNF74, the record shows mean z-score -0.16; z-score, replicate A = -0.21; z-score, replicate B = -0.19; z-score, replicate C = -0.08.
Against LOC402565 (retired record), the entry reads mean z-score -0.21; z-score, replicate A = -0.17; z-score, replicate B = -0.44; z-score, replicate C = 0.

Ordered by “z-score, replicate A” (descending): 2 of the entries above.
PLA2G12A — mean z-score: 1.67; z-score, replicate A: 2.34; z-score, replicate B: 1.02; z-score, replicate C: 1.66
HAL — mean z-score: -0.26; z-score, replicate A: -0.16; z-score, replicate B: -0.44; z-score, replicate C: -0.17
